Measured data: PubChem BioAssay AID1259414 (Drosophila RNAi Screening Center, 2018)
Test: 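Genome-wide screen for host control of endosymbiont load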 (primary screen). System: Drosophila JW18 cells infected with Wolbachia. Reagent: long dsRNA against Drosophila genes, 0.25 µg dsRNA per well of a 384-well plate. Time to read-out: 5 days. Conditions: cells persistently infected with Wolbachia before knock-down; no added drug. Detection: 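Imaged fluorescence in situ signal for Wolbachia 23S rRNA per DAPI-counted host cell, given as a robust z-score within each plate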. Direction: Wolbachia per cell robust z: higher = more Wolbachia per host cell than the plate typical. Call rule: 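Active if absolute robust z reaches 1.5 in two or more of three replicates, leaving out multi- or no-target dsRNAs, genes unexpressed in JW18 and A1 wells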.
The deposit covers about 24,000 reagents; shown is a random part of those that have a named target and a result. In the full data, about 1,210 (5%) are marked active. 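Inactive calls also include excluded dsRNAs with several or no targets, genes unexpressed in JW18, and well A1, regardless of score.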 Unmarked entries are inactive. Names joined by + are all predicted targets of the reagent.

| target gene | dsRNA | Wolbachia per cell robust z, rep 1 | Wolbachia per cell robust z, rep 2 | Wolbachia per cell robust z, rep 3 |
| --- | --- | --- | --- | --- |
| Nadk1a (NAD kinase 1a) | DRSC05431 | 0.246 (active) | 2.17 | 3.36 |
| Nadk1a (NAD kinase 1a) | DRSC06963 | 0.433 | -0.143 | -4.47 |
| Nedd8 (Nedd8 ubiquitin like modifier) | DRSC02092 | 3.86 (active) | 3.12 | 2.31 |
| Hs3st-A (Heparan sulfate 3-O sulfotransferase-A) | DRSC06508 | -0.22 | 0.351 | -0.479 |
| Hs3st-A (Heparan sulfate 3-O sulfotransferase-A) | DRSC06509 | -2.65 | -0.271 | 0.0961 |
| Hs3st-A (Heparan sulfate 3-O sulfotransferase-A) | DRSC30014 | 0.285 | 0.086 | 0.942 |
| CG9394 | DRSC04550 | 0.469 | -4.58 | 0.566 |
| CG13337 | DRSC06371 | 0.266 | -0.787 | 0.495 |
| CG13337 | DRSC28309 | -3.84 | -1.06 | -0.882 |
| CG15528 | DRSC15065 | -4.86 | 0.652 | -0.536 |
| CG34325 | DRSC19802 | -1.55 | -2.73 | -0.674 |
| CG34325 | DRSC20200 | -0.746 | -0.127 | -3.07 |
| Der-1 (Derlin-1) | DRSC00301 | -0.565 | -7.2 | 1.13 |
| achi + vis | DRSC07277 | -0.501 | -0.456 | -0.757 |
| chb (chromosome bows) | DRSC11469 | -0.52 | -0.385 | 0.94 |
| chb (chromosome bows) | DRSC39154 | 0.216 | 0.641 | 0.0786 |
| cin + CG42376 | DRSC18752 | 0.756 | -0.00648 | -0.244 |
| cin + CG42376 | DRSC40697 | -0.233 | -1.27 | 0.0779 |
| SNCF (SoxNeuro Co-Factor) | DRSC10115 | -1.48 | 0.0565 | -0.918 |
| dmt (dalmatian) | DRSC16932 | 0.813 | 0.932 | 1.85 |
| CG15256 | DRSC01940 | -0.591 | 0.727 | 0.578 |
| CG4593 | DRSC18374 | -3.97 (active) | -1.21 | -2.67 |
| CG4593 | DRSC29173 | 0.629 | 0.255 | 0.337 |
| CG8326 | DRSC20103 | 0.32 | 0.508 | 0.19 |
| CG8326 | DRSC28368 | 0.347 | -0.723 | -8.41 |
| raptor | DRSC18359 | 0.937 | 1.63 | 0.691 |
| smo (smoothened) | DRSC00837 | -2.26 | 0.046 | 0.516 |
| smo (smoothened) | DRSC28492 | -1.22 | -1.59 | -0.784 |
| MED8 (Mediator complex subunit 8) | DRSC06426 | -1.9 (active) | -1.58 | 0.453 |
| COX5A (Cytochrome c oxidase subunit 5A) | DRSC16611 | 0.988 | 1.15 | 0.959 |
| trn (tartan) | DRSC11407 | -0.202 | 0.73 | -0.192 |
| Usp7 (Ubiquitin-specific protease 7) | DRSC18909 | -0.47 | -0.861 | -0.393 |
| Usp7 (Ubiquitin-specific protease 7) | DRSC19604 | -4.58 (active) | -3.97 | -1.44 |
| Usp7 (Ubiquitin-specific protease 7) | DRSC26109 | 1.04 | -0.459 | -1.3 |
| pan (pangolin) | DRSC17176 | -0.145 | -7.25 | 1.25 |
| pan (pangolin) | DRSC22582 | -0.371 | -0.162 | 0.507 |
| pan (pangolin) | DRSC29251 | 1.36 | -0.283 | 0.297 |
| CG14247 | DRSC14742 | -3.16 | -1.21 | 0.126 |
| CG14247 | DRSC24048 | -0.555 | -0.105 | 0.805 |
| Galphai (G protein alpha subunit i) | DRSC11168 | 0.0444 | -4.83 | -1.35 |
| Galphai (G protein alpha subunit i) | DRSC28521 | -0.222 | 0.898 | 0.133 |
| CG32066 | DRSC10652 | 0.504 | -0.426 | 0.279 |
| CG32066 | DRSC10653 | -0.0477 | -0.486 | 0.423 |
| CG18662 | DRSC02691 | 0.00796 | -8.23 | -0.13 |
| CG4291 | DRSC00650 | 0.397 | 0.35 | -0.334 |
| CG4291 | DRSC28410 | 0.921 | -0.365 | -0.363 |
| CG13724 | DRSC10053 | -1.82 | 0.225 | -0.692 |
| CG13724 | DRSC25395 | -0.644 | 0.528 | 0.954 |

Laid out differently: entries from further up
target gene | dsRNA | Wolbachia per cell robust z, rep 1 | Wolbachia per cell robust z, rep 2 | Wolbachia per cell robust z, rep 3
CG34325 | DRSC20200 | -0.746 | -0.127 | -3.07
Der-1 (Derlin-1) | DRSC00301 | -0.565 | -7.2 | 1.13
achi + vis | DRSC07277 | -0.501 | -0.456 | -0.757
chb (chromosome bows) | DRSC11469 | -0.52 | -0.385 | 0.94
chb (chromosome bows) | DRSC39154 | 0.216 | 0.641 | 0.0786
cin + CG42376 | DRSC18752 | 0.756 | -0.00648 | -0.244
cin + CG42376 | DRSC40697 | -0.233 | -1.27 | 0.0779
SNCF (SoxNeuro Co-Factor) | DRSC10115 | -1.48 | 0.0565 | -0.918
dmt (dalmatian) | DRSC16932 | 0.813 | 0.932 | 1.85
CG15256 | DRSC01940 | -0.591 | 0.727 | 0.578
CG4593 | DRSC18374 | -3.97 (active) | -1.21 | -2.67
CG4593 | DRSC29173 | 0.629 | 0.255 | 0.337

The listing continues:
| target gene | dsRNA | Wolbachia per cell robust z, rep 1 | Wolbachia per cell robust z, rep 2 | Wolbachia per cell robust z, rep 3 |
| --- | --- | --- | --- | --- |
| CG6656 | DRSC16085 | 1.36 | -0.163 | 0.534 |
| Pitslre | DRSC11874 | 1.06 (active) | 2.28 | 1.64 |
| Pitslre | DRSC23346 | -0.818 | -0.258 | -1.49 |
| Trax (Translin associated factor X) | DRSC15709 | 0.359 | -0.059 | -0.56 |
| CG11322 | DRSC02142 | -3.97 | -0.623 | -6.19 |
| CG11322 | DRSC24585 | 0.659 | 0.277 | 0.376 |
| CG11322 | DRSC39010 | -1.53 | 1.37 | -0.216 |
| CG6403 | DRSC16033 | -4.04 | -1.8 | 0.683 |
| CG17746 | DRSC08521 | 0.496 | -0.518 | 0.968 |
| CG17746 | DRSC23333 | -1.82 | -0.651 | -0.053 |
| Tengl3 (Testis EndoG-Like 3) | DRSC22288 | -0.12 | 0.235 | 0.00235 |
| Tengl3 (Testis EndoG-Like 3) | DRSC27773 | 0.525 | -0.86 | -5.61 |
| lush | DRSC11364 | -1.85 | -0.503 | -0.702 |
| Nxf3 (Nuclear export factor 3) | DRSC21749 | -1.52 | -1.39 | -0.0446 |
| CG1246 | DRSC08275 | 0.194 | 0.373 | 0.386 |
| ND-ASHI (NADH dehydrogenase (ubiquinone) ASHI subunit) | DRSC18291 | 1.1 | 0.802 | 0.93 |
| ND-ASHI (NADH dehydrogenase (ubiquinone) ASHI subunit) | DRSC27165 | -4.27 | -0.202 | -0.282 |
| CG7164 | DRSC03018 | 0.845 | 1.1 | 0.869 |
| CG7164 | DRSC28704 | -0.367 | 0.34 | 0.251 |
| Cpr78Cc (Cuticular protein 78Cc) | DRSC11846 | 0.825 | -0.144 | 1.34 |
| CG11756 | DRSC19424 | -2.83 | -0.863 | 0.384 |
| CG11756 | DRSC30076 | -0.0171 | -0.534 | 0.0211 |
| Srp68 (Signal recognition particle 68) | DRSC10475 | -0.0261 | -1.19 | 0.519 |
| Srp68 (Signal recognition particle 68) | DRSC28655 | 0.787 | 0.998 | 0.694 |
| CG17167 | DRSC20902 | -0.62 | 0.313 | -0.16 |
| CG17167 | DRSC20903 | 0.66 | 0.666 | 0.833 |
| fh (frataxin) | DRSC18430 | 0.781 | 0.579 | -0.564 |
| orb2 + CG43783 | DRSC10540 | 0.353 | 0.25 | -0.128 |
| orb2 + CG43783 | DRSC10541 | 0.199 | -5.92 | -0.527 |
| CG42355 | DRSC07967 | 0.0872 | -1.2 | 0.227 |
| Acp1 (Adult cuticle protein 1) | DRSC01854 | 0.191 | 0.522 | 0.508 |
| scat (scattered) | DRSC02722 | 0.464 | -0.0112 | -0.125 |
| scat (scattered) | DRSC27076 | -0.242 | 1.65 | 1.44 |
| CG31897 | DRSC01020 | -0.34 | -1.43 | -1.08 |
| CG4511 | DRSC15589 | -2.79 | 0.0791 | -0.233 |
| CG4511 | DRSC28640 | 0.0164 | 0.954 | 0.349 |
| ush (u-shaped) | DRSC00843 | 0.726 | 0.837 | 0.147 |
| ush (u-shaped) | DRSC26524 | 1.17 | 1.28 | 1.23 |
| Prim2 (DNA primase subunit 2) | DRSC11610 | -0.942 | 0.0745 | 0.537 |
